Measurements reported in PubChem BioAssay AID504761 (Drosophila RNAi Screening Center, 2011)
The deposit covers about 22,000 reagents; shown is a random part of those that have a named target and a result. In the full data, 116 (0.52%) are marked active. 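Calls depend on retest data that are not deposited; infection was ranked per plate without normalising between plates; the unit of the infection score is not given.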 Not all columns of the deposit are shown. Reagent sequences are not shown. Not stated in the record: the amount of reagent, the time to read-out.

Assay: 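Genome-wide fly cell screen for genes dengue virus requires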 (primary screen)
Cells: D.Mel-2 cells from Drosophila
Reagents: long dsRNA against Drosophila genes
Conditions: infection with dengue virus type 2; dose and infection time not stated
Measurement: 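Per well on two replicate plates, imaging gave the percent of cells positive for viral envelope protein, ranked by infection, and a nuclear count of cells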
Scale: infection score: higher = more virus-infected cells
Call rule: 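Low infection ranks in the two replicates (chance level up to 0.065) followed by a retest with a 1.5-fold or larger significant decrease, p below 0.05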
Calls: active = confirmed: knock-down lowers infection; inactive = not picked or not confirmed

{"Target gene":"NAT1","dsRNA":"DRSC06854","infection score, replicate 1":3.37,"outcome":"inactive"}
{"Target gene":"NAT1","dsRNA":"DRSC30053","infection score, replicate 1":3.23,"outcome":"inactive"}
{"Target gene":"CG32436","dsRNA":"DRSC11683","infection score, replicate 1":4.67,"outcome":"inactive"}
{"Target gene":"CG32436","dsRNA":"DRSC11796","infection score, replicate 1":15.6,"outcome":"inactive"}
{"Target gene":"CG30278","dsRNA":"DRSC22787","infection score, replicate 1":4.82,"outcome":"inactive"}
{"Target gene":"obst-J","dsRNA":"DRSC10821","infection score, replicate 1":3.41,"outcome":"inactive"}
{"Target gene":"obst-J","dsRNA":"DRSC28354","infection score, replicate 1":22.1,"outcome":"inactive"}
{"Target gene":"epsilonTry","dsRNA":"DRSC07611","infection score, replicate 1":12.2,"outcome":"inactive"}
{"Target gene":"epsilonTry","dsRNA":"DRSC25110","infection score, replicate 1":4.25,"outcome":"inactive"}
{"Target gene":"Gr98a","dsRNA":"DRSC14719","infection score, replicate 1":1.04,"outcome":"inactive"}
{"Target gene":"PIG-L","dsRNA":"DRSC15577","infection score, replicate 1":2.22,"outcome":"inactive"}
{"Target gene":"PIG-L","dsRNA":"DRSC24921","infection score, replicate 1":7.16,"outcome":"inactive"}

2 entries from above in another layout:
Target gene	dsRNA	infection score, replicate 1	outcome
epsilonTry	DRSC25110	4.25	inactive
Gr98a	DRSC14719	1.04	inactive
